Results reported in publication PMC9954444, “SERPIN-Derived Small Peptide (SP16) as a Potential Therapeutic Agent against HIV-Induced Inflammatory Molecules and Viral Replication in Cells of the Central Nervous System” (Cells, 2023).

Columns and labels:
[1] = system: HIV-1SF162; assay: HIV p24 ELISA in endothelial cells; assay type: cell-based; settings: HIV-infected endothelial cells; 250 μg/mL SP16; 12 h
Method: Human primary cells obtained from ScienCell Research Laboratories (Carlsbad, CA, USA) included primary astrocytes (catalog # 1800), primary brain microvascular endothelial cells (BMECs) (catalog # 1710), and primary pericytes (catalog # 1200). Human cell lines obtained from American Type Culture Collection (ATCC; Manassas, VA, USA) included microglia (catalog # CRL-3304). Cells were seeded in 24-well plates coated with poly-L-lysine (0.1 mg/mL) and maintained for 5–10 days at 37 °C and 5% CO2 [39, 40, 41, 42, 43]. Cells were maintained in their respective growth medium supplemented with fetal bovine serum-FBS (10%) procured from Hyclone (Logan, UT, USA), and penicillin/streptomycin (1%) procured from Invitrogen (Waltham, MA, USA). Media was discarded every other day, and fresh media was added.
The HIV-1SF162 strain, from the macrophage lineage isolated from Dr. Jay Levy, was obtained through the NIH (Germantown, MD, USA) Research and Reference Reagent Program. Cells were infected with 1 ng/mL of HIV (p24/10^6 cells) as performed previously. […]
Levels of cytokines and chemokines in cell supernatant and postmortem brain homogenates were measured using an ELISA kit from R&D Systems (Minneapolis, MN, USA) as per the manufacturer’s protocol. […] The optical density was read at A450 with wavelength correction at A570 on a Synergy HTX plate reader from BioTek (Winooski, VT, USA).

[2] = system: endothelial monolayer of the in vitro BBB; assay: Trans-endothelial electrical resistance (TEER) of in vitro BBB; assay type: cell-based, human; settings: SP16 1 and 100 μg/mL on apical side of the BBB, up to 48 h; values remained constant
Method: Human primary endothelial cells were grown to confluence on the upper (luminal) surface of a 3 μm transwell membrane insert and astrocytes and pericytes were grown to confluency on the bottom (apical) surface of the inserts close to the endothelial cells to simulate the structure of the BBB. Transwell inserts were submerged in their respective media, as described previously. The BBB was cultured for approximately 5 days and the inserts were transferred into a 24-well plate containing both HIV-infected and non-infected microglia seeded at the bottom of each well.
Electrical resistance across the endothelial monolayer formed in the transwell of the in vitro BBB was measured using a Millicell ERS microelectrode from Millipore (Bedford, MA, USA) as performed previously. The resulting TEER values were calculated minus the blank media control.

[3] = system: astrocytes; assay: Cell viability, MTT and trypan blue, astrocytes; assay type: cell-based, human; settings: range of SP16 concentrations, 24 and 96 h
Method: Cell proliferation and survival were measured using an MTT (3-[4,5-dimethylthiazol-2-yl]-2,5 diphenyl tetrazolium bromide) cell growth assay kit from MilliporeSigma (Temecula, CA, USA). Human brain cells at a cell density of 3 × 10^4 cells/well, were exposed to SP16 at different concentrations. After 24 and 96 h, 10 μL of 12 mM MTT solution was added to each well. After 4 h of incubation, DMSO was added to dissolve the formazan crystals. The absorbance in each well was read at 570 nm with a reference wavelength of 630 nm on a Synergy HTX microplate reader from BioTek (Winooski, VT, USA).
Cell viability was measured using trypan blue exclusion assay, which allows for the identification of live (unstained) and dead (blue) cells. Human brain cells were grown to confluency in a 24-well plate and exposed to SP16 at increasing concentrations. After 24 and 96 h, cells were harvested using enzyme-free cell dissociation buffer followed by centrifugation. Pellets were re-suspended in their specific media, and 10 μL of suspensions were diluted in an equal volume of 0.40% trypan blue dye from Bio-Rad (catalog #145-0013, Hercules, CA, USA). 10 µL was loaded on a counting chamber, and a TC20 automated cell counter determined the percentage of live cells from Bio-Rad (Hercules, CA, USA). Cell viability was expressed as the percentage of live cells out of total cells.

[4] = system: endothelial cells; assay: Western blotting of LRP-1, NF-κB and Akt in endothelial cells; assay type: cell-based, human; settings: 12 h
Method: Proteins in brain cell lysates and postmortem brain homogenates were separated by SDS-PAGE, transferred to PVDF membranes, and subsequently incubated with primary antibodies from Santa Cruz Biotechnology (Dallas, TX, USA), including NF-κB at 1:200 dilution (catalog # sc-8008) and β-actin at 1:200 dilution (catalog # sc-47778). Antibodies from Abcam (Boston, MA, USA), including Akt at dilution 1:500 (catalog # ab-38449) and LRP-1 at dilution 1:50,000 (catalog # ab-92544). After primary antibodies, membranes were incubated with horseradish peroxidase-conjugated secondary antibodies followed by exposure to SuperSignal West Femto Substrate from Thermo Scientific (Waltham, MA, USA). Membranes were visualized using a ChemiDoc imaging system from Bio-Rad (Hercules, CA, USA) and protein expression was calculated using Image J software from NIH (Bethesda, MD, USA).
Human primary astrocytes and endothelial cells seeded in 24-well plates at 80% confluency were transfected overnight with small interfering (si) RNA against LRP-1, using Lipofectamine 2000 (Invitrogen, Carlsbad, CA, USA) in Opti-MEM media according to the manufacturer’s protocol. After overnight incubation, Opti-MEM media was replaced with corresponding culture media. After 48 and 96 h post transfection, cells were treated with SP16 (25 and 100 μg/mL) for 12 and 24 h.

[5] = system: NLRP3 inflammasome; settings: macrophages in vitro; cited from earlier work
[6] = system: EcoHIV; assay: p24 gag ELISA in EcoHIV-infected mouse glia; assay type: cell-based, EcoHIV-NDK; settings: 250 μg/mL SP16, 12 h post-treatment (Figure 9 legend: 24 h)
[7] = system: HIV-1SF162; assay: HIV p24 gag protein ELISA in microglia; assay type: cell-based; settings: 12 h
[8] = system: microglia; assay: Cell viability, MTT and trypan blue, microglia; assay type: cell-based, human; settings: range of SP16 concentrations, 24 and 96 h

## CCCC[C@H](NC(=O)[C@H](CC(C)C)NC(=O)[C@H](Cc1ccccc1)NC(=O)[C@@H](NC(=O)[C@H](Cc1ccccc1)NC(=O)[C@@H]1CCCN1C(=O)[C@H](CCCCN)NC(=O)[C@H](CC(N)=O)NC(=O)[C@H](Cc1ccccc1)NC(=O)[C@H](CCCCN)NC(=O)[C@@H](NC(C)=O)C(C)C)C(C)C)C(=O)N[C@H](C(=O)N[C@@H](CCC(=O)O)C(=O)N[C@@H](CCC(N)=O)C(=O)N[C@@H](CC(N)=O)C(=O)N[C@H](C(=O)N[C@@H](CCCCN)C(N)=O)[C@@H](C)O)[C@@H](C)CC [SP16]
[1]
  levels of HIV p24: Attenuation
[2]
  TEER value: about 300 Ωxcm^2
[3]
  cell viability: did not decrease cell viability
[4]; HIV-infected and non-infected endothelial cells, increased concentration of SP16
  LRP-1 expression levels: reduced LRP-1 expression levels
[4]; endothelial cells, 25 μg/mL SP16
  expression level of NF-κB: no significant changes
[4]; endothelial cells, SP16 100 and 250 μg/mL, β-actin also reduced at 250 μg/mL
  expression levels of NF-κB: significantly reduced
[4]; infected and non-infected endothelial cells, 25 μg/mL SP16
  expression levels of Akt: upregulated
[5]
  formation of the NLRP3 inflammasome: reduction
[6]
  reduction of viral replication, p24 gag protein: 30%
[7]; HIV-infected microglia in wells without the BBB, SP16 1 and 100 µg/mL
  viral load, p24 gag protein: attenuated in a concentration-dependent manner
[7]; HIV-infected microglia with the BBB inserts
  viral-induced p24 levels: unaffected
[8]
  cell viability: did not decrease cell viability
